PubChem BioAssay AID1259414 | Drosophila RNAi Screening Center, 2018
The screen tested about 24,000 reagents; below is a random part of those that have a named target and a result. Of all reagents, about 1,210 (5%) got an active call. 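Inactive calls also include excluded dsRNAs with several or no targets, genes unexpressed in JW18, and well A1, regardless of score.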 Names joined by + are all predicted targets of the reagent. Reagent sequences are not shown.

- Assay: 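Host factors increasing or decreasing Wolbachia levels in cultured fly cells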 (primary screen)
- Cell system: Drosophila JW18 cells infected with Wolbachia
- Knock-down reagent: long dsRNA against Drosophila genes, 0.25 µg dsRNA per well of a 384-well plate
- Timing: 5 days
- Conditions: cells persistently infected with Wolbachia before knock-down; no added drug
- Read-out: 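Imaged fluorescence in situ signal for Wolbachia 23S rRNA per DAPI-counted host cell, given as a robust z-score within each plate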
- Direction: Wolbachia per cell robust z: higher = more Wolbachia per host cell than the plate typical
- Rule for the call: 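Active if absolute robust z reaches 1.5 in two or more of three replicates, leaving out multi- or no-target dsRNAs, genes unexpressed in JW18 and A1 wells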

target gene | DRSC id | Wolbachia per cell robust z, rep 1 | Wolbachia per cell robust z, rep 2 | Wolbachia per cell robust z, rep 3 | Outcome
Polr2J | DRSC02995 | -9.73 | 0.0781 | 0.565 | inactive
Polr2J | DRSC27111 | -3.99 | 1.47 | 1.96 | inactive
CG7906 | DRSC10928 | 0.536 | 0.483 | 0.77 | inactive
CG7906 | DRSC29526 | -0.00425 | 1.12 | -1.8 | inactive
Mef2 | DRSC07468 | -2.07 | -1.17 | 0.77 | inactive
Mef2 | DRSC25554 | 0.887 | 0.481 | 0.982 | inactive
MFS3 | DRSC00664 | 0.659 | -5.66 | 0.987 | inactive
MFS3 | DRSC28601 | 0.0266 | 0.286 | -1.07 | inactive
dnd | DRSC16064 | 0.332 | -0.617 | 0.438 | inactive
CG13110 | DRSC02208 | 0.193 | -4.51 | 0.683 | inactive
CCT6 | DRSC20095 | 0.745 | 0.517 | 0.715 | inactive
CG12911 | DRSC06226 | 0.0922 | -2.32 | 0.25 | inactive
CG12911 | DRSC27975 | -2.07 | -0.922 | -0.144 | inactive
DCAF12 | DRSC15475 | -7.42 | -2.85 | -1.35 | active
E(spl)malpha-BFM | DRSC16994 | 1.55 | 0.853 | 0.929 | inactive
E(spl)malpha-BFM | DRSC28358 | 0.706 | 0.667 | 0.642 | inactive
Or65c | DRSC21312 | -0.844 | -0.27 | -1.27 | inactive
CG30033 | DRSC24832 | -0.246 | -1.07 | -0.484 | inactive
hts | DRSC28097 | 1.44 | -0.769 | -0.471 | inactive
hts | DRSC38863 | 0.221 | 0.595 | -0.718 | inactive
hts | DRSC40689 | -0.464 | 0.993 | 0.566 | inactive
l(2)03659 | DRSC07269 | -0.631 | -0.378 | -3.37 | inactive
l(2)03659 | DRSC07638 | 0.0336 | 0.0946 | -1.13 | inactive
CG17764 | DRSC23055 | 0.0568 | -0.299 | 0.0307 | inactive
CG6974 | DRSC16160 | 0.593 | -0.755 | -1.39 | inactive
niki | DRSC14285 | 0.127 | -1.84 | -0.692 | inactive
Spt | DRSC07123 | -0.0309 | -0.276 | 0.476 | inactive
Spt | DRSC29487 | 0.0129 | -0.203 | -0.277 | inactive
CG1628 | DRSC18109 | 0.0922 | 0.113 | -0.616 | inactive
Got1 | DRSC07177 | -1.03 | 0.861 | 0.117 | inactive
Got1 | DRSC26159 | -0.468 | -0.522 | -0.612 | inactive
RYa | DRSC40588 | 0.547 | 1.39 | 1.56 | inactive
DNAlig1 | DRSC04518 | 0.0209 | -4.43 | -0.0187 | inactive
CG34452 | DRSC40585 | -0.224 | 1.09 | -0.164 | inactive
CG10237 | DRSC02029 | -1.21 | -1.27 | -0.792 | inactive
ref(2)P | DRSC03601 | -0.135 | 0.599 | 0.336 | inactive
ref(2)P | DRSC40817 | -0.821 | -0.309 | -1.77 | inactive
ATPsynGL | DRSC03027 | 0.134 | 0.475 | 0.0944 | inactive
ATPsynGL | DRSC28550 | 1.17 | 0.821 | 1.45 | inactive
CG32448 | DRSC22657 | 0.217 | 0.638 | -0.756 | inactive
CG31704 | DRSC22118 | -0.398 | 0.484 | -0.549 | inactive
CG10939 | DRSC06019 | -0.446 | -0.323 | -0.552 | inactive
CG10939 | DRSC21734 | 0.53 | 0.237 | 0.917 | inactive
kkv | DRSC12315 | 0.245 | 0.563 | -0.697 | inactive
Sws1 + Rad1 | DRSC00778 | 0.508 | -4.32 | 0.262 | inactive
Dbp73D | DRSC11142 | -0.113 | -1.13 | -2.32 | inactive
Rrp45 | DRSC20198 | -0.514 | -1.08 | 0.256 | inactive
Rrp45 | DRSC29319 | 0.373 | -1.68 | 0.328 | inactive
CG34224 | DRSC38880 | -1.87 | -0.735 | -3.16 | inactive
Vps13 | DRSC06817 | 0.495 | 0.0494 | -7.26 | inactive
Vps13 | DRSC29275 | -1.77 | -1.02 | -1.32 | inactive
CG14551 | DRSC14894 | 0.578 | 0.322 | 0.11 | inactive
CG9578 | DRSC20694 | 0.556 | 0.239 | -0.714 | inactive
CG9578 | DRSC29540 | 0.00425 | 0.585 | 1.49 | inactive
Acp24A4 | DRSC22352 | -1.39 | -0.908 | -0.943 | inactive
Patr-1 | DRSC14159 | -8.37 | -4.8 | -0.689 | active
Patr-1 | DRSC26481 | 0.657 | -0.426 | -0.677 | inactive
CG31418 | DRSC21780 | 0.356 | 0.518 | 0.937 | inactive
CG31418 | DRSC26160 | -0.404 | 0.573 | -0.388 | inactive
mRpL17 | DRSC08350 | 0.785 | 1.33 | -1.56 | inactive
Gr98d | DRSC14571 | -1.02 | 0.803 | -0.596 | inactive
Gr98d | DRSC24547 | -0.544 | -3.48 | -1.73 | inactive
Hpd | DRSC11670 | -0.63 | 0.332 | 0.804 | inactive
Hpd | DRSC27639 | -0.367 | -0.249 | -0.943 | inactive
GstE11 | DRSC06926 | -1.56 | -0.989 | -2.21 | active
KrT95D | DRSC16725 | -11.7 | 0.609 | 2.71 | inactive
KrT95D | DRSC25551 | 1.13 | 1.04 | 0.25 | inactive
RPA2 | DRSC03184 | -3.19 | -0.596 | 0.564 | inactive
RPA2 | DRSC29750 | 0.148 | -0.45 | 1.28 | inactive
Sym | DRSC12301 | -0.427 | 0.00322 | 0.53 | inactive
Sym | DRSC29255 | -0.0302 | -0.19 | -4.15 | inactive
Mhc | DRSC03367 | 0.491 | -0.0586 | -0.488 | inactive
Mhc | DRSC25959 | -0.586 | 0.165 | 0.306 | inactive
Ubc4 | DRSC11312 | -2.11 | 0.357 | -0.376 | inactive
Gss1 + Gss2 | DRSC21539 | 0.98 | -0.698 | 0.146 | inactive
CRMP | DRSC12073 | -1.65 | -3.13 | -1.58 | active
CRMP | DRSC12345 | -1.8 | 0.114 | 0.942 | inactive
CRMP | DRSC27638 | 0.744 | 0.114 | -0.523 | inactive
CG33521 | DRSC17211 | -3.1 | -2.36 | 0.292 | active
CG33521 | DRSC22919 | 0.032 | -0.189 | -0.107 | inactive
CG33521 | DRSC29186 | -0.565 | -0.793 | 0.194 | inactive
Acsx1R | DRSC14339 | -0.0749 | 0.101 | 1.6 | inactive
CG13678 | DRSC10036 | 0.506 | 0.33 | 0.843 | inactive
CR16735 | DRSC15144 | -2.82 | 0.713 | -5 | inactive
Dmtn | DRSC12513 | -1.06 | 0.11 | -0.672 | inactive
Dmtn | DRSC28385 | -0.795 | -0.912 | -1.56 | inactive
CG13282 | DRSC02254 | 0.141 | -0.856 | -0.743 | inactive

A run of entries of the results above, for reference:
target gene | DRSC id | Wolbachia per cell robust z, rep 1 | Wolbachia per cell robust z, rep 2 | Wolbachia per cell robust z, rep 3 | Outcome
CG17764 | DRSC23055 | 0.0568 | -0.299 | 0.0307 | inactive
CG6974 | DRSC16160 | 0.593 | -0.755 | -1.39 | inactive
niki | DRSC14285 | 0.127 | -1.84 | -0.692 | inactive
Spt | DRSC07123 | -0.0309 | -0.276 | 0.476 | inactive
Spt | DRSC29487 | 0.0129 | -0.203 | -0.277 | inactive
CG1628 | DRSC18109 | 0.0922 | 0.113 | -0.616 | inactive
